# Source: US7745575B1 (Cellpep Pharma Inc., priority 2004, dated 2010)
# Assay: toxicity in vivo, LD50 after intracerebroventricular injection
# Conditions: mouse, icv or intrathecal, 20 g C57/BL6 mice
# Procedure: Groups of six to eight mice per dose were injected with 5 μl peptide solution containing 0.1% (w/v) bovine serum albumin and 0.9% (w/v) NaCl. The LD50 values are set out in Table 5.
compound,measurement,value
"CC[C@H](C)[C@@H]1NC(=O)[C@H](CCCCN)NC(=O)[C@@H](NC(=O)[C@H](CCCCN)NC(=O)[C@@H](NC(=O)[C@H](CC(N)=O)NC(=O)[C@@H](NC(=O)[C@@H](NC(=O)[C@@H](NC(=O)CN)C(C)C)[C@@H](C)CC)[C@@H](C)CC)C(C)C)CSSC[C@@H]2NC(=O)[C@H](CCCCN)NC(=O)CNC(=O)[C@H](Cc3ccccc3)NC(=O)[C@H](CCCNC(=N)N)NC(=O)[C@H](CCSC)NC(=O)CNC(=O)[C@H](C)NC(=O)[C@H](CCCCN)NC(=O)[C@H](CCCCN)NC(=O)[C@@H]3CSSC[C@@H](C(=O)N[C@H](C(=O)N4CCC[C@H]4C(=O)N[C@@H](CCCCN)C(=O)O)[C@@H](C)O)NC(=O)[C@H](Cc4c[nH]cn4)NC(=O)[C@H](CSSC[C@H](NC(=O)[C@H](CCC(N)=O)NC(=O)[C@H](CCCNC(=N)N)NC(=O)[C@H](CO)NC1=O)C(=O)N[C@@H](CC(C)C)C(=O)N[C@@H](CCC(=O)O)C(=O)N1CCC[C@H]1C(=O)N3)NC(=O)[C@H](CCCCN)NC(=O)CNC(=O)[C@H](CC(N)=O)NC(=O)[C@H](CCSC)NC2=O [OsK1, reference compound]",LD50,2 µg/kg
